In test [1] the target is CgBdf1 BD1 (Candida glabrata, UniProt Q6FWV7). The test is described as follows: HTRF assay, inhibition of H4ac4 peptide binding. On the set-up: species or system C. glabrata. The following applies: read-out: IC50 CgBdf1 BD1; Table S3; estimate, preliminary single-replicate HTRF assay.
The subject of the next test is CgBdf1 BD2. The following applies: for Normalized (0 to 100%), WT, Average / Raw data, WT, Left / Raw data, WT, Rigt: CgBdf1 BD2 WT; for Normalized (0 to 100%), WT, Average / Normalized (0 to 100%), YF mutant, Average: normalized peptide array signal; for Raw data, WT, Left / Raw data, WT, Rigt / Raw data, YF mutant, Left / Raw data, YF mutant, Right: peptide array signal; for Raw data, WT, Left / Raw data, YF mutant, Left: left replicate; for Raw data, WT, Rigt / Raw data, YF mutant, Right: right replicate; for Normalized (0 to 100%), YF mutant, Average / Raw data, YF mutant, Left / Raw data, YF mutant, Right: CgBdf1 BD2 YF mutant.

The chains behind the UniProt entries cited, without tags or fusion partners. Residues count along the entry.
UniProt Q6FWV7, 100-228 limits assumed: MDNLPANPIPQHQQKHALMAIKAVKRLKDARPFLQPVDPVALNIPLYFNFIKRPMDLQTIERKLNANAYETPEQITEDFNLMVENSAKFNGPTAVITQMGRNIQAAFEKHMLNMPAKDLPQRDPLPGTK

For test [2], the system named is CgBdf1 BD1. The following applies: for Normalized (0 to 100%), WT, Average / Raw data, WT, Left / Raw data, WT, Rigt: CgBdf1 BD1 WT; for Normalized (0 to 100%), WT, Average / Normalized (0 to 100%), YF mutant, Average: normalized peptide array signal; for Raw data, WT, Left / Raw data, WT, Rigt / Raw data, YF mutant, Left / Raw data, YF mutant, Right: peptide array signal; for Raw data, WT, Left / Raw data, YF mutant, Left: left replicate; for Raw data, WT, Rigt / Raw data, YF mutant, Right: right replicate; for Normalized (0 to 100%), YF mutant, Average / Raw data, YF mutant, Left / Raw data, YF mutant, Right: CgBdf1 BD1 YF mutant.

pIC50: −log10 of the molar value. Some results are limits rather than exact numbers.

These results are taken from article PMC11904993, “Humanized Candida and NanoBiT Assays Expedite Discovery of Bdf1 Bromodomain Inhibitors With Antifungal Potential” (Advanced Science, 2025).

By pIC50 is commonly meant −log10 of the IC50, conventionally taken in molar units.

With `CC(=O)Nc1ccc(CCc2nc3ccc(C(=O)NC4CC4)cc3[nH]2)cc1`, the pIC50 at CgBdf1 BD1 [1] was < 4.70. Moreover, in the test with CgBdf1 BD2, the “Normalized (0 to 100%), WT, Average” value is 0.639%; the “Raw data, WT, Left” value turned out to be 0.004055; the “Raw data, WT, Rigt” value is reported as 0.008734; the “Normalized (0 to 100%), YF mutant, Average” value was 0.721%. In the test on CgBdf1 BD2, the “Raw data, YF mutant, Left” value came out at 0.01166 and the “Raw data, YF mutant, Right” value stood at 0.002761. Moreover, in the test with CgBdf1 BD1 [2], the “Normalized (0 to 100%), WT, Average” value came to 1.75%; the “Raw data, WT, Left” value turned out to be 0.005671; the “Raw data, WT, Rigt” value was found to be 0.0293; the “Normalized (0 to 100%), YF mutant, Average” value is on record as 0.478%. In addition, in the test on CgBdf1 BD1 [2], the “Raw data, YF mutant, Left” value was found to be 0.005244 and the “Raw data, YF mutant, Right” value is reported as 0.004318.

Turning to `COc1nccnc1NC1CCN(C(=O)c2ccncc2)CC1`, in the test with CgBdf1 BD2, the “Normalized (0 to 100%), WT, Average” value stood at 0.452%; the “Raw data, WT, Left” value turned out to be 0.004367; the “Raw data, WT, Rigt” value is listed as 0.004679; the “Normalized (0 to 100%), YF mutant, Average” value is recorded as 0.706%. In addition, in the test with CgBdf1 BD2, the “Raw data, YF mutant, Left” value stood at 0.01104 and the “Raw data, YF mutant, Right” value stood at 0.003067. Further, in the test with CgBdf1 BD1 [2], the “Normalized (0 to 100%), WT, Average” value is listed as 1.42%; the “Raw data, WT, Left” value worked out at 0; the “Raw data, WT, Rigt” value is given as 0.02836; the “Normalized (0 to 100%), YF mutant, Average” value stood at 0.308%. In addition, in the test with CgBdf1 BD1 [2], the “Raw data, YF mutant, Left” value is recorded as 0.003085 and the “Raw data, YF mutant, Right” value was 0.003085.

Regarding `Cc1ccc(-c2nnc(C)c(NCc3ccc4c(c3)OCO4)n2)cc1`, the pIC50 on CgBdf1 BD1 [1] was < 4.70. Further, in the test on CgBdf1 BD2, the “Normalized (0 to 100%), WT, Average” value stood at 3.71%; the “Raw data, WT, Left” value is 0.0315; the “Raw data, WT, Rigt” value was 0.04273; the “Normalized (0 to 100%), YF mutant, Average” value turned out to be 0.798%. Further, in the test on CgBdf1 BD2, the “Raw data, YF mutant, Left” value is given as 0.01595 and the “Raw data, YF mutant, Right” value worked out at 0. Further, in the test on CgBdf1 BD1 [2], the “Normalized (0 to 100%), WT, Average” value is recorded as 11%; the “Raw data, WT, Left” value was 0.07782; the “Raw data, WT, Rigt” value came out at 0.1396; the “Normalized (0 to 100%), YF mutant, Average” value amounted to 0.509%. In addition, in the test on CgBdf1 BD1 [2], the “Raw data, YF mutant, Left” value came to 0.007094 and the “Raw data, YF mutant, Right” value was found to be 0.003085.

On to `CC(=O)Nc1ccc(NC(=O)Cn2ccn3nc(-c4ccc(F)cc4)c(CO)c3c2=O)cc1`, for which the pIC50 at CgBdf1 BD1 [1] was < 4.70. In the test with CgBdf1 BD2, the “Normalized (0 to 100%), WT, Average” value was found to be 0.421%; the “Raw data, WT, Left” value is reported as 0.004055; the “Raw data, WT, Rigt” value was 0.004367; the “Normalized (0 to 100%), YF mutant, Average” value is 0.567%. Also, in the test with CgBdf1 BD2, the “Raw data, YF mutant, Left” value amounted to 0.007362 and the “Raw data, YF mutant, Right” value is 0.003988. In addition, in the test with CgBdf1 BD1 [2], the “Normalized (0 to 100%), WT, Average” value came out at 1.26%; the “Raw data, WT, Left” value stood at 0.005356; the “Raw data, WT, Rigt” value is listed as 0.01985; the “Normalized (0 to 100%), YF mutant, Average” value is given as 0.308%. In the test on CgBdf1 BD1 [2], the “Raw data, YF mutant, Left” value worked out at 0.003085 and the “Raw data, YF mutant, Right” value is given as 0.003085.

Regarding `Cn1nccc1C(=O)NCc1ccc(-c2nc(-c3ccc(F)cc3)no2)s1`, on CgBdf1 BD1 [1], the pIC50 was 4.85. In addition, in the test on CgBdf1 BD2, the “Normalized (0 to 100%), WT, Average” value was 0.405%; the “Raw data, WT, Left” value was 0.004055; the “Raw data, WT, Rigt” value was 0.004055; the “Normalized (0 to 100%), YF mutant, Average” value is listed as 0.752%. In the test on CgBdf1 BD2, the “Raw data, YF mutant, Left” value is 0.01135 and the “Raw data, YF mutant, Right” value turned out to be 0.003681. Besides, in the test with CgBdf1 BD1 [2], the “Normalized (0 to 100%), WT, Average” value was 2.14%; the “Raw data, WT, Left” value was found to be 0.004411; the “Raw data, WT, Rigt” value turned out to be 0.03844; the “Normalized (0 to 100%), YF mutant, Average” value is 0.308%. Moreover, in the test with CgBdf1 BD1 [2], the “Raw data, YF mutant, Left” value turned out to be 0.003085 and the “Raw data, YF mutant, Right” value is on record as 0.003085.

In the case of `COc1cc2nc(C(=O)N3CCCCC3)cc(Nc3ccc(F)c(F)c3)c2cc1OC`, the negative logarithm of the IC50 (pIC50) at CgBdf1 BD1 [1] was 5.17. For the same compound, in the test on CgBdf1 BD2, the “Normalized (0 to 100%), WT, Average” value is 0.39%; the “Raw data, WT, Left” value is given as 0.002183; the “Raw data, WT, Rigt” value stood at 0.005614; the “Normalized (0 to 100%), YF mutant, Average” value was 0.567%. For the same compound, in the test with CgBdf1 BD2, the “Raw data, YF mutant, Left” value is 0.009816 and the “Raw data, YF mutant, Right” value amounted to 0.001534. Moreover, in the test on CgBdf1 BD1 [2], the “Normalized (0 to 100%), WT, Average” value came out at 3.58%; the “Raw data, WT, Left” value was 0.01071; the “Raw data, WT, Rigt” value turned out to be 0.06081; the “Normalized (0 to 100%), YF mutant, Average” value is on record as 0.185%. Also, in the test with CgBdf1 BD1 [2], the “Raw data, YF mutant, Left” value is recorded as 0.0009254 and the “Raw data, YF mutant, Right” value came to 0.002776.

`CC(=O)NCC(=O)N1CCC(c2cc(-c3ccc(F)cc3)n[nH]2)CC1`: at CgBdf1 BD1 [1], the pIC50 was < 4.70. In the test on CgBdf1 BD2, the “Normalized (0 to 100%), WT, Average” value turned out to be 0.421%; the “Raw data, WT, Left” value came to 0.004367; the “Raw data, WT, Rigt” value is listed as 0.004055; the “Normalized (0 to 100%), YF mutant, Average” value is recorded as 0.767%. Also, in the test on CgBdf1 BD2, the “Raw data, YF mutant, Left” value is given as 0.01442 and the “Raw data, YF mutant, Right” value stood at 0.0009202. In addition, in the test on CgBdf1 BD1 [2], the “Normalized (0 to 100%), WT, Average” value stood at 1.17%; the “Raw data, WT, Left” value stood at 0.0003151; the “Raw data, WT, Rigt” value turned out to be 0.023; the “Normalized (0 to 100%), YF mutant, Average” value is 0.524%. Further, in the test with CgBdf1 BD1 [2], the “Raw data, YF mutant, Left” value is recorded as 0.005244 and the “Raw data, YF mutant, Right” value turned out to be 0.005244.
